Calls of active or inactive are those of the source.
What was measured:
Mus musculus [1] = experiment: Anti-inflammatory activity against OPRK deficient mouse model of MOG-induced autoimmune encephalomyelitis assessed as reduction in immune cell infiltration in to CNS at 100 uL of 20 uM solution administered ip starting from day 1 post immunization and measured 9 to 16 days post Mycobacterium …
Mus musculus [2] = experiment: Anti-inflammatory activity against OPRK deficient mouse model of MOG-induced autoimmune encephalomyelitis assessed as reduction in TH17 cell population in lumbar spinal cord at 100 uL of 20 uM solution administered ip starting from day 1 post immunization and measured 9 to 16 days post …
Mus musculus [3] = experiment: Anti-inflammatory activity against OPRK deficient mouse model of MOG-induced autoimmune encephalomyelitis assessed as inhibition of development of clinical symptoms at 100 uL of 20 uM solution administered ip starting from day 1 post immunization and measured 9 to 16 days post Mycobacterium …
Mus musculus [4] = experiment: Anti-inflammatory activity against OPRK deficient mouse model of MOG-induced autoimmune encephalomyelitis assessed as increase in CD5-positive/Foxp3-positive Treg cells at 100 uL of 20 uM solution administered ip starting from day 1 post immunization and measured 9 to 16 days post Mycobacterium …

O=C(Cc1ccc(Cl)c(Cl)c1)N1CCN(Cc2cn(CCF)nn2)[C@H]2CCC[C@H](N3CCCC3)[C@H]21
inactive: Activity (Mus musculus [1]) | Activity (Mus musculus [2]) | inhibition (Mus musculus [3]) | Activity (Mus musculus [4])

O=C(Cc1ccc(Cl)c(Cl)c1)N1CCN[C@H]2CCC[C@H](N3CCCC3)[C@H]21
inactive: Activity (Mus musculus [1]) | Activity (Mus musculus [2]) | inhibition (Mus musculus [3]) | Activity (Mus musculus [4])
